Results of unrelated studies side by side (data: NIAID ChemDB).

All rows: growth or infection tests; agent: Mycobacterium avium complex; measure: MIC

Conditions beyond the fields shown may differ between rows. Two numbers with a dash give a range or band.

{"compound": "CCCCCCCCC(=O)O[C@H]1[C@H](C)[C@@H](O[C@@H]2O[C@H](C)C[C@H](N(C)C)[C@H]2O)C(C)(O)C[C@@H](C)/C(=N\\OCCCOc2ccccc2)[C@H](C)[C@@H](O)[C@](C)(O)[C@@H](CC)OC(=O)[C@@H]1C", "strain or isolate": "20039 (clarithromycin-susceptible)", "result": "6.25 µg/mL"}
{"compound": "CN(C)c1ccc(O)c2c1C[C@H]1C[C@H]3[C@H](N(C)C)C(=O)C(C(N)=O)=C(O)[C@@]3(O)C(=O)C1=C2O", "strain or isolate": "LV-2", "result": "32 µg/mL"}
{"compound": "CC[C@H]1OC(=O)[C@H](C)[C@@H](O[C@H]2C[C@@](C)(OC)[C@@H](O)[C@H](C)O2)[C@H](C)[C@@H](O[C@@H]2O[C@H](C)C[C@H](N(C)C)[C@H]2O)[C@](C)(OC)C[C@@H](C)C(=O)[C@H](C)[C@@H](O)[C@]1(C)O", "strain or isolate": "N-444", "result": "8 µg/mL"}
{"compound": "NNC(=O)c1ccncc1", "strain or isolate": "900", "result": "2 µg/mL"}
{"compound": "CC[C@H]1OC(=O)[C@H](C)[C@@H](OC2C[C@@](C)(OC)[C@@H](O)[C@H](C)O2)[C@H](C)[C@@H](O[C@@H]2O[C@H](C)C[C@H](N(C)C)[C@H]2O)C(C)(O)C[C@@H](C)/C(=N\\OCCCCc2ccccc2)[C@H](C)[C@@H](O)[C@]1(C)O", "strain or isolate": "20039", "result": "1.56 µg/mL"}
{"compound": "CCCCCCCCO[C@@H]1O[C@H]([C@@H](CO)O[C@H]2O[C@H](CO)[C@@H](O)[C@@H]2O)[C@H](O)[C@H]1O", "strain or isolate": "NJ168", "result": ">128 µg/mL"}
{"compound": "O=C1c2ccc(Cl)cc2-n2c1nc1ccccc1c2=O", "strain or isolate": "19075", "result": "0.13 µg/mL"}
{"compound": "NC[C@@H]1O[C@H](O[C@H]2[C@@H](O)[C@H](O[C@@H]3[C@@H](O)[C@H](N)C[C@H](N)[C@H]3O[C@H]3O[C@H](CN)[C@@H](O)[C@H](O)[C@H]3N)O[C@@H]2CO)[C@H](N)[C@@H](O)[C@@H]1O", "strain or isolate": "ATCC 35718", "result": "32 µg/mL"}
{"compound": "CC[C@H]1OC(=O)[C@H](C)[C@@H](OC2C[C@@](C)(OC)[C@@H](O)[C@H](C)O2)[C@H](C)[C@@H](O[C@@H]2O[C@H](C)C[C@H](N(C)C)[C@H]2O)C(C)(O)C[C@@H](C)/C(=N\\OCCOc2ccccc2)[C@H](C)[C@@H](O)[C@]1(C)O", "strain or isolate": "20092", "result": "12.5 µg/mL"}
{"compound": "O=C1c2cc(Cl)ccc2-n2c1nc1ncccc1c2=O", "strain or isolate": "101", "result": "5 µg/mL"}
{"compound": "CO[C@H]1/C=C/O[C@@]2(C)Oc3c(C)c(O)c4c(=O)c(c5oc6cc(N7CCN(CC(C)C)CC7)cc(=O)c6nc5c4c3=C2O)NC(=O)/C(C)=C\\C=C\\[C@H](C)[C@H](O)[C@@H](C)[C@@H](O)[C@@H](C)[C@H](OC(C)=O)[C@@H]1C", "strain or isolate": "N-981 (HIV+)", "result": "0.0625 µg/mL"}
{"compound": "CCCCCCCCO[C@@H]1O[C@H]([C@@H](COC)O[C@H]2O[C@H](CO)[C@@H](O)[C@@H]2O)[C@H](OC)[C@H]1OC", "strain or isolate": "NJ168", "result": ">128 µg/mL"}
{"compound": "CCO/N=C1\\[C@H](C)CC(C)(O)[C@H](O[C@@H]2O[C@H](C)C[C@H](N(C)C)[C@H]2O)[C@@H](C)[C@H](OC2C[C@@](C)(OC)[C@@H](O)[C@H](C)O2)[C@@H](C)C(=O)O[C@H](CC)[C@@](C)(O)[C@H](O)[C@H]1C", "strain or isolate": "20096", "result": ">50 µg/mL"}
{"compound": "Cc1noc(NS(=O)(=O)c2ccc(N)cc2)c1C", "strain or isolate": "LA-1", "result": "50 µg/mL"}
{"compound": "CCCCCCCCO[C@@H]1O[C@@H]([C@H](COC)O[C@H]2O[C@H](COCc3ccccc3)[C@@H](OCc3ccccc3)[C@@H]2OCc2ccccc2)[C@H](OC)[C@H]1OC", "strain or isolate": "NJ304", "result": ">128 µg/mL"}
{"compound": "CC[C@H]1OC(=O)[C@H](C)[C@@H](OC2C[C@@](C)(OC)[C@@H](O)[C@H](C)O2)[C@H](C)[C@@H](O[C@@H]2O[C@H](C)C[C@H](N(C)C)[C@H]2O)C(C)(O)C[C@@H](C)/C(=N\\OCCN(C)c2ccccc2)[C@H](C)[C@@H](O)[C@]1(C)O", "strain or isolate": "20092 (clarithromycin-resistant)", "result": "25 µg/mL"}
{"compound": "CCCCCCCCCCCCCCCCO/N=C1\\[C@H](C)CC(C)(O)[C@H](O[C@@H]2O[C@H](C)C[C@H](N(C)C)[C@H]2O)[C@@H](C)[C@H](OC2C[C@@](C)(OC)[C@@H](O)[C@H](C)O2)[C@@H](C)C(=O)O[C@H](CC)[C@@](C)(O)[C@H](O)[C@H]1C", "strain or isolate": "20092", "result": ">50 µg/mL"}
{"compound": "CO[C@H]1/C=C/O[C@@]2(C)Oc3c(C)c(O)c4c(O)c(c5c(c4c3C2=O)NC2(CCN(CC(C)C)CC2)N=5)=NC(=O)/C(C)=C\\C=C\\[C@H](C)[C@H](O)[C@@H](C)[C@@H](O)[C@@H](C)[C@H](OC(C)=O)[C@@H]1C", "strain or isolate": "N-979 (HIV+)", "result": "0.2 µg/mL"}
{"compound": "O=C1c2cc(F)ccc2-n2c1nc1ccc(Cl)cc1c2=O", "strain or isolate": "19075", "result": "0.06 µg/mL"}
{"compound": "N[C@@H]1CN(c2c(F)cc3c(=O)c(C(=O)O)cn([C@@H]4C[C@@H]4F)c3c2Cl)CC12CC2", "strain or isolate": "109", "result": "8–16 µg/mL"}
{"compound": "CC[C@H]1OC(=O)[C@H](C)[C@@H](O[C@H]2C[C@@](C)(OC)[C@@H](OC(C)=O)[C@H](C)O2)[C@H](C)[C@@H](O[C@@H]2O[C@H](C)C[C@H](N(C)C)[C@H]2OC(=O)NNCc2cccc([N+](=O)[O-])c2)C(C)(O)C[C@@H](C)/C(=N\\OCCCC2CCCCC2)[C@H](C)[C@@H](O)[C@]1(C)O", "strain or isolate": "20096 (clarithromycin-resistant)", "result": "0.78 µg/mL"}
{"compound": "CCCCCCCCO[C@@H]1O[C@@H](C(CO[C@@H]2O[C@@H](C(O)CO)[C@H](O)[C@H]2O)OC)[C@H](OC)[C@H]1OC", "strain or isolate": "NJ168", "result": ">128 µg/mL"}
{"compound": "CCCCCCCCc1ccc2nc3n(c(=O)c2c1)-c1ccc(Cl)cc1C3=O", "strain or isolate": "19075", "result": "5 µg/mL"}
{"compound": "CCCCCCCCO[C@H]1OC([C@@H](COC)O[C@H]2O[C@H]([C@@H](O)CO)[C@@H](O)[C@@H]2O)[C@@H](OC)[C@@H]1OC", "strain or isolate": "NJ304", "result": ">12.8 µg/mL"}
{"compound": "CC[C@H]1OC(=O)[C@H](C)[C@@H](O[C@H]2C[C@@](C)(OC)[C@@H](O)[C@H](C)O2)[C@H](C)[C@@H](O[C@@H]2O[C@H](C)C[C@H](N(C)C)[C@H]2O)[C@](C)(OC)C[C@@H](C)C(=O)[C@H](C)[C@@H](O)[C@]1(C)O", "strain or isolate": "N-980 (HIV+)", "result": "0.5 µg/mL"}
{"compound": "CS/C(N)=N\\N=C\\c1ccnnc1", "strain or isolate": "ATCC 19421", "result": ">100 µg/mL"}
{"compound": "COc1c(N2CCNC(C)C2)c(F)cc2c(=O)c(C(=O)O)cn(C3CC3)c12", "strain or isolate": "26778", "result": "8 µg/mL"}
{"compound": "CS/C(N)=N\\N=C\\c1cccnc1", "strain or isolate": "ATCC 19421", "result": ">100 µg/mL"}
{"compound": "CC[C@H]1OC(=O)[C@H](C)[C@@H](OC(=O)Cc2ccc[nH]2)[C@H](C)[C@@H](O[C@@H]2O[C@H](C)C[C@H](N(C)C)[C@H]2O)C(C)(O)C[C@@H](C)/C(=N\\OCCCOc2ccccc2)[C@H](C)[C@@H](O)[C@]1(C)O", "strain or isolate": "20039 (clarithromycin-susceptible)", "result": "1.56 µg/mL"}
{"compound": "CCCCCCCCO[C@@H]1O[C@H]([C@@H](COCc2ccccc2)O[C@H]2O[C@H](CO)[C@@H](O)[C@@H]2O)[C@H](OCc2ccccc2)[C@H]1OCc1ccccc1", "strain or isolate": "NJ304", "result": ">128 µg/mL"}
{"compound": "O=C1c2cc(F)ccc2-n2c1nc1cc(F)c(F)cc1c2=O", "strain or isolate": "101", "result": "<0.2 µg/mL"}
{"compound": "CC[C@H]1OC(=O)[C@H](C)[C@@H](O[C@H]2C[C@@](C)(OC)[C@@H](O)[C@H](C)O2)[C@H](C)[C@@H](O[C@@H]2O[C@H](C)C[C@H](N(C)C)[C@H]2O)[C@](C)(OC)C[C@@H](C)C(=O)[C@H](C)[C@@H](O)[C@]1(C)O", "strain or isolate": "Isolate 90-0779", "result": "3 µg/mL"}
{"compound": "NCC[C@H](O)C(=O)N[C@@H]1C[C@H](N)[C@@H](O[C@H]2O[C@H](CN)[C@@H](O)[C@H](O)[C@H]2O)[C@H](O)[C@H]1O[C@H]1O[C@H](CO)[C@@H](O)[C@H](N)[C@H]1O", "strain or isolate": "ATCC 35718", "result": "16 µg/mL"}
{"compound": "CC[C@H]1OC(=O)[C@H](C)[C@@H](OC2C[C@@](C)(OC)[C@@H](O)[C@H](C)O2)[C@H](C)[C@@H](O[C@@H]2O[C@H](C)C[C@H](N(C)C)[C@H]2O)C(C)(O)C[C@@H](C)/C(=N\\OCc2ccccc2)[C@H](C)[C@@H](O)[C@]1(C)O", "strain or isolate": "20096", "result": ">50 µg/mL"}
{"compound": "CC[C@@]1(O)OC(=O)[C@H](C)[C@@H](O[C@H]2C[C@@](C)(OC)[C@@H](O)[C@H](C)O2)[C@H](C)[C@@H](O[C@@H]2O[C@H](C)C[C@H](N(C)C)[C@H]2O)[C@](C)(OC)C[C@@H](C)C(=O)[C@H](C)[C@@H](O)[C@]1(C)O", "strain or isolate": "LV-2", "result": "2 µg/mL"}
{"compound": "O=C1c2cc(I)ccc2-n2c1nc1cc(Cl)cc(Cl)c1c2=O", "strain or isolate": "19075", "result": "1 µg/mL"}
{"compound": "CC1(C)N=C(N)N=C(N)N1OCCCOc1cc(Cl)c(Cl)cc1Cl", "strain or isolate": "DW4", "result": "2 µg/mL"}
{"compound": "CCCCCCCCO[C@H]1O[C@H](CO[C@H]2O[C@H](CO)[C@@H](O)[C@@H]2O)[C@@H](O)[C@@H]1O", "strain or isolate": "NJ211", "result": ">128 µg/mL"}
{"compound": "CN[C@@H]1[C@H](O[C@H]2[C@H](O[C@H]3[C@H](O)[C@@H](O)[C@H](N=C(N)N)[C@@H](O)[C@@H]3N=C(N)N)O[C@@H](C)[C@]2(O)C=O)O[C@@H](CO)[C@H](O)[C@H]1O", "strain or isolate": "ATCC 35718", "result": "8 µg/mL"}
{"compound": "CC[C@H]1OC(=O)[C@H](C)[C@@H](OC2C[C@@](C)(OC)[C@@H](O)[C@H](C)O2)[C@H](C)[C@@H](O[C@@H]2O[C@H](C)C[C@H](N(C)C)[C@H]2O)C(C)(O)C[C@@H](C)/C(=N\\OCCCOc2ccccc2)[C@H](C)[C@@H](O)[C@]1(C)O", "strain or isolate": "20092", "result": "3.13 µg/mL"}

For reference, 3 entries again:

compound	strain or isolate	result
CC[C@H]1OC(=O)[C@H](C)[C@@H](O[C@H]2C[C@@](C)(OC)[C@@H](O)[C@H](C)O2)[C@H](C)[C@@H](O[C@@H]2O[C@H](C)C[C@H](N(C)C)[C@H]2O)[C@](C)(OC)C[C@@H](C)C(=O)[C@H](C)[C@@H](O)[C@]1(C)O	N-444	8 µg/mL
CCCCCCCCO[C@@H]1O[C@H]([C@@H](COC)O[C@H]2O[C@H](CO)[C@@H](O)[C@@H]2O)[C@H](OC)[C@H]1OC	NJ168	>128 µg/mL
CCCCCCCCO[C@@H]1O[C@H]([C@@H](CO)O[C@H]2O[C@H](CO)[C@@H](O)[C@@H]2O)[C@H](O)[C@H]1O	NJ168	>128 µg/mL